{"source": "PubChem BioAssay AID624099 (ICCB-Longwood, 2012)", "assay": "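Knock-downs relieving repression by E2 of an HPV18 LCR luciferase reporter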 (primary screen)", "cell system": "human C33A cervical carcinoma cells (HPV-negative) stably expressing BPV1 E2 and an HPV18 LCR luciferase reporter", "knock-down reagent": "siRNA pool against human genes, 40 nM", "time to read-out": "72 h", "measurement": "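Per-well luciferase luminescence, z-scored on each plate against the plate mean and SD with control wells left out, then averaged across three replicate plates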", "scale": "mean z-score and z-score: higher = stronger reporter signal, weaker E2 silencing", "call rule": "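Mean z ≥ 2 together with z ≥ 2 in two or more of the three replicates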", "note": "Shown is one part, drawn at random, of about 21,000 deposited reagents. Over the whole deposit, 497 (2.4%) are marked active. 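Higher z means weaker E2 silencing; only reporter increases were scored, and knock-downs that hurt cell survival may mask genuine repressor factors.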 Unmarked entries are inactive."}
{"Gene": "TICAM1 (GeneID 148022)", "mean z-score": -0.72, "z-score, replicate A": -0.66, "z-score, replicate B": -0.54, "z-score, replicate C": -0.96}
{"Gene": "MUC7 (GeneID 4589)", "mean z-score": 0.1, "z-score, replicate A": 0.21, "z-score, replicate B": 0.02, "z-score, replicate C": 0.07}
{"Gene": "YJU2 (GeneID 55702)", "mean z-score": 0.55, "z-score, replicate A": 0.44, "z-score, replicate B": 0.36, "z-score, replicate C": 0.84}
{"Gene": "AKR1C6P (GeneID 389932)", "mean z-score": -1.08, "z-score, replicate A": -1.04, "z-score, replicate B": -1.32, "z-score, replicate C": -0.87}
{"Gene": "ETF1 (GeneID 2107)", "mean z-score": -1.44, "z-score, replicate A": -1.56, "z-score, replicate B": -1.42, "z-score, replicate C": -1.34}
{"Gene": "PPP1R14B (GeneID 26472)", "mean z-score": -0.43, "z-score, replicate A": -0.14, "z-score, replicate B": -0.54, "z-score, replicate C": -0.6}

Not a retest: an excerpt of the list.
{"Gene": "TICAM1 (GeneID 148022)", "mean z-score": -0.72, "z-score, replicate A": -0.66, "z-score, replicate B": -0.54, "z-score, replicate C": -0.96}
{"Gene": "MUC7 (GeneID 4589)", "mean z-score": 0.1, "z-score, replicate A": 0.21, "z-score, replicate B": 0.02, "z-score, replicate C": 0.07}

Further entries follow:
{"Gene": "KNG1 (GeneID 3827)", "mean z-score": 0.57, "z-score, replicate A": 0.11, "z-score, replicate B": 0.64, "z-score, replicate C": 0.96}
{"Gene": "MC5R (GeneID 4161)", "mean z-score": -0.85, "z-score, replicate A": -1.21, "z-score, replicate B": -0.82, "z-score, replicate C": -0.51}
{"Gene": "TMC7 (GeneID 79905)", "mean z-score": -1.48, "z-score, replicate A": -1.73, "z-score, replicate B": -1.61, "z-score, replicate C": -1.09}
{"Gene": "MRPS21 (GeneID 54460)", "mean z-score": 0.4, "z-score, replicate A": 0.35, "z-score, replicate B": 0.38, "z-score, replicate C": 0.46}
{"Gene": "NRROS (GeneID 375387)", "mean z-score": 0.95, "z-score, replicate A": 0.62, "z-score, replicate B": 1.7, "z-score, replicate C": 0.51}
{"Gene": "KLF3 (GeneID 51274)", "mean z-score": -0.26, "z-score, replicate A": -0.13, "z-score, replicate B": -0.11, "z-score, replicate C": -0.54}
{"Gene": "ANKRA2 (GeneID 57763)", "mean z-score": 1.61, "z-score, replicate A": 1.69, "z-score, replicate B": 1.85, "z-score, replicate C": 1.28}
{"Gene": "PSME3IP1 (GeneID 80011)", "mean z-score": -0.68, "z-score, replicate A": -0.27, "z-score, replicate B": -0.75, "z-score, replicate C": -1.03}
